A mixed list of measured activities; the numbers were collected in NIAID ChemDB.

Common to all: target-level tests; organism: HIV-1; protein: Reverse transcriptase; read-out: IC50

Neighbouring rows are from separate reports. Two numbers with a dash give a range or band. ICn: concentration for n% inhibition.

CC(CC(=O)O)NC(=O)COc1ccc(NC(=O)CSc2nnnn2-c2ccc(C(C)(C)C)cc2Cl)c(Cl)c1 ; read by: PicoGreen / fluorescence ; mutations: RT-K103 Y181C ; value: <1 µM
COc1cccc(Cn2cccc2/C=C/C(=O)CC(=O)C(=O)O)c1 ; read by: RT activity / nucleotide incorporation ; value: >50 µM
CCCCCC/C=C/CCCCCCCc1cccc(O)c1C(=O)O ; read by: RT activity / nucleotide incorporation ; value: >100 µM
CC(=O)Oc1c(OCC(=O)c2ccc(-c3ccccc3)cc2)ccc2c1C(=O)c1ccccc1C2=O ; value: 6 µM
Cc1cn([C@H]2C[C@H](F)C(COP(=O)([O-])OP(=O)([O-])OC[C@H]3O[C@@H](n4cc(C)c(=S)[nH]c4=O)C[C@@H]3F)O2)c(=O)[nH]c1=S ; read by: RT activity / ELISA ; value: 0.9 µM
C#Cc1ccc(Nc2nccc(Oc3c(C)cc(-c4cn(Cc5ccc(C(=O)OC)cc5)nn4)cc3C)n2)cc1 ; read by: RT activity / ELISA ; value: 0.24 µM
CC(C)(C)c1ccc(-n2nnnc2SCC(=O)Nc2ccc(C#CCCCO)cc2Cl)c(Cl)c1 ; read by: PicoGreen / fluorescence ; strain or isolate: WT ; value: <1 µM
CCN1c2ncc(CCOc3ccc(CC(=O)O)c4c3CCCC4)cc2C(=O)N(C)c2ccc(F)nc21 ; read by: nucleotide incorporation / radiometric ; mutations: RT-K103N Y181C ; value: 0.1–1 µM
Nc1sc2c(c1C(=O)Nc1ccc(Cl)cc1)CCCCC2 ; read by: nucleotide incorporation / fluorescence ; value: 39 µM
CC(C)=CCOc1cc(NC(=S)c2ccoc2C)ccc1Cl ; mutations: RT-E138K ; value: 2.1 µM
CC(C)(C)c1ccc(-n2nnnc2SCC(=O)Nc2ccc(NC(=O)Cc3ccsc3)cc2Cl)c(Cl)c1 ; read by: PicoGreen / fluorescence ; mutations: RT-K103 Y181C ; value: <1 µM
CC(C)=CCN1Cc2cccc3[nH]c(=S)n(c23)C[C@@H]1C ; read by: nucleotide incorporation ; mutations: RT-Y181C ; value: 6.12 µM
CN(C)C(=O)COC(C)(C)C#Cc1ccc(NC(=O)CSc2nnnn2-c2ccc(C(C)(C)C)cc2Cl)c(Cl)c1 ; read by: PicoGreen / fluorescence ; strain or isolate: WT ; value: <1 µM
Cc1nc2c(c(=O)o1)CCCCC2 ; read by: nucleotide incorporation / fluorescence ; value: >100 µM
CC(C)(C#Cc1ccc(NC(=O)CSc2nnnn2-c2ccc(C(C)(C)C)cc2Cl)c(Cl)c1)OCC(=O)N1CCCC1 ; read by: PicoGreen / fluorescence ; mutations: RT-K103 Y181C ; value: <1 µM
O=C1CS[C@@H]2[C@H](O)[C@@H](O)[C@@H](O)[C@H](O)CN12 ; read by: RT activity / absorbance ; value: 6.84 µM
O=C(/C=C/c1cccn1Cc1ccc(F)cc1)CC(=O)C(=O)O ; read by: RT activity / nucleotide incorporation ; value: >50 µM
CC(C)(O)C#Cc1ccc(NC(=O)CSc2nnnn2-c2cc(F)cc(C(F)(F)F)c2Cl)c(Cl)c1 ; read by: PicoGreen / fluorescence ; mutations: RT-K103 Y181C ; value: <1 µM
CCN1c2ncc(CCOc3ccc(C(C)CC(=O)O)c4ccccc34)cc2C(=O)N(C)c2cccnc21 ; read by: nucleotide incorporation / radiometric ; strain or isolate: WT ; value: <0.1 µM
Cc1cc(S(N)(=O)=O)ccc1NC(=O)COc1ccccc1C(=O)c1cc(Cl)cc(C#N)c1 ; read by: fluorescence ; strain or isolate: NNRTI-resistant ; mutations: RT-Y181C ; value: 0.0121 µM
Cc1cc(C)cc(S(=O)(=O)c2c(C(=O)NC(C)C(N)=O)[nH]c3ccc(Cl)cc23)c1 ; read by: RT activity ; mutations: WT ; value: 0.026 µM
Cc1ccc(-n2nnnc2SCC(=O)Nc2ccc(-c3nn[nH]n3)cc2Cl)c(Cl)c1 ; read by: PicoGreen / fluorescence ; mutations: RT-K103 Y181C ; value: <1 µM
CCOC(=O)C(=O)CC(=O)/C=C/c1cc(-c2ccccc2)cn1Cc1ccc(F)cc1 ; read by: RT activity / nucleotide incorporation ; value: >50 µM
COc1ccccc1-c1nc2sc3c(c2c(=O)o1)CCCCC3 ; read by: nucleotide incorporation / fluorescence ; value: >100 µM
N#Cc1cc(Cl)cc(Oc2c(Br)ccc(CC(=O)Nc3ccc(S(N)(=O)=O)cc3Cl)c2F)c1 ; read by: radiometric ; value: 0.0081 µM
CC(C)(C#Cc1ccc(NC(=O)CSc2nnnn2-c2ccc(C(C)(C)C)cc2Cl)c(Cl)c1)C(=O)NC1CC1 ; read by: PicoGreen / fluorescence ; mutations: RT-K103 Y181C ; value: <1 µM
O=c1oc(-c2cccc(O)c2)nc2sc3c(c12)CCCCC3 ; read by: nucleotide incorporation / fluorescence ; value: 54.2 µM
CCN1c2ncc(CCOc3ccc(/C=C(\C)C(=O)O)c4ccccc34)cc2C(=O)N(C)c2ccc(Cl)nc21 ; read by: nucleotide incorporation / radiometric ; mutations: RT-K103N Y181C ; value: 0.1–1 µM
CC(CC(=O)O)NC(=O)c1ccc(NC(=O)CSc2nnnn2-c2ccc(C(C)(C)C)cc2Cl)c(Cl)c1 ; read by: PicoGreen / fluorescence ; mutations: RT-K103 Y181C ; value: <1 µM
C[C@@H]1N2Cc3c(c4ccccc4n3C(=O)OC(C)(C)C)C1(O)c1c(n(C(=O)OC(C)(C)C)c3ccccc13)C2 ; read by: radiometric ; value: <32 µM
CC(C)(C)c1ccc(-n2nnnc2SCC(=O)Nc2ccc(NC(=O)C3CCCC3)cc2Cl)c(Cl)c1 ; read by: PicoGreen / fluorescence ; mutations: RT-K103 Y181C ; value: <1 µM
Cc1nnc2c3ccccc3c(N3CCc4cccnc4C3)nn12 ; read by: RT activity / fluorescence ; strain or isolate: IIIB ; value: 2.46 µM
Cc1ccc(-n2nccc2SCC(=O)Nc2ccc(-c3ccc(CC(=O)O)cc3)cc2Cl)c(Cl)c1 ; read by: PicoGreen / fluorescence ; mutations: RT-K103 Y181C ; value: <1 µM
COc1cc2c(cc1OC)CN(c1nn3c(C)nnc3c3ccccc13)CC2 ; read by: RT activity / fluorescence ; strain or isolate: IIIB ; value: 0.4 µM
CCN1c2ncc(CCOc3ccc(C(=O)O)c4ccccc34)cc2C(=O)Nc2c(C)ccnc21 ; read by: nucleotide incorporation / radiometric ; mutations: RT-Y188L ; value: >1 µM
Cc1c(C(C#N)c2cccc(Cl)c2)nc(SC(C)C)[nH]c1=O ; read by: nucleotide incorporation / fluorescence ; value: 0.002 µM
CCN1c2ncc(CCOc3ccc(-c4nccn4C)cc3C)cc2C(=O)N(C)c2cccnc21 ; read by: nucleotide incorporation / radiometric ; strain or isolate: IIIB ; value: <0.05 µM
Cc1nnc2c3ccccc3c(N3CCc4cc(O)c(O)cc4C3)nn12 ; read by: RT activity / fluorescence ; strain or isolate: 98US_MSC5016 ; value: 1.82 µM
O=C1c2ccccc2S[C@@H]2[C@H](O)[C@@H](O)[C@H](O)[C@H](O)CN12 ; read by: RT activity / absorbance ; value: 3.44 µM
CC(C)(N)C#Cc1ccc(NC(=O)CSc2nnnn2-c2cc(Br)ccc2Cl)c(Cl)c1 ; read by: PicoGreen / fluorescence ; strain or isolate: WT ; value: <1 µM
CCN1c2ncc(CCOc3ccc(-c4cccc(CC(=O)O)c4)cc3C)cc2C(=O)N(C)c2cccnc21 ; read by: nucleotide incorporation / radiometric ; strain or isolate: IIIB ; mutations: RT-K103N Y181C ; value: <0.05 µM
CCN1c2ncc(CCOc3ccc(C(=O)O)c4ccccc34)cc2C(=O)N(C)c2ccc(F)nc21 ; read by: nucleotide incorporation / radiometric ; mutations: RT-K103N Y181C ; value: 0.1–1 µM
CCCCCCCCCCCCCc1cccc(O)c1 ; read by: RT activity / nucleotide incorporation ; value: >100 µM
CC(C)=CCOc1cc(NC(=S)c2ccsc2C)ccc1Cl ; mutations: RT-Y181I ; value: 1.2 µM
NC(=O)c1c(NC(=O)c2ccc(Cl)cc2)sc2c1CCCCC2 ; read by: nucleotide incorporation / fluorescence ; value: 56 µM
CC(=O)COc1ccc2c(c1OCC(C)=O)C(=O)c1ccccc1C2=O ; mutations: K103N ; value: 64 µM
O=C1c2ccccc2S[C@H]2[C@@H](O)[C@@H](O)[C@H](O)[C@H](O)CN12 ; read by: RT activity / absorbance ; value: 17.17 µM
CCN1c2ncc(CCOc3ccc(S(=O)(=O)NC(C)=O)c4ccccc34)cc2C(=O)N(C)c2cccnc21 ; read by: nucleotide incorporation / radiometric ; mutations: RT-Y188L ; value: >1 µM
Cc1nc(N2C(=O)CSC2c2c(F)cccc2F)nc(C)c1C ; read by: absorbance ; value: <10 µg/mL
Nc1cc2c(c(N3CCOCC3)c1)CCN(c1nn3c(C4CC4)nnc3c3ccccc13)C2 ; read by: RT activity / fluorescence ; strain or isolate: KER2008 ; value: 14.2 µM
O=c1oc(-c2ccccc2F)nc2sc3c(c12)CCCCC3 ; read by: nucleotide incorporation / fluorescence ; value: 81 µM
CC(C)(C#Cc1ccc(NC(=O)CSc2nnnn2-c2ccc(C3CC3)cc2Cl)c(Cl)c1)NCc1cnc[nH]1 ; read by: PicoGreen / fluorescence ; mutations: RT-K103 Y181C ; value: <1 µM
CCN1c2ncc(CCOc3ccc(C(=O)Nc4cccn(CC(=O)O)c4=O)cc3C)cc2C(=O)N(C)c2cccnc21 ; read by: nucleotide incorporation / radiometric ; strain or isolate: IIIB ; mutations: RT-K103N Y181C ; value: 0.05–0.1 µM
C#Cc1ccc(Nc2nccc(Oc3c(C)cc(-c4cn(CCc5cccs5)nn4)cc3C)n2)cc1 ; read by: RT activity / ELISA ; value: 0.44 µM
C=CCOc1ccc2c(c1OC(C)=O)C(=O)c1ccccc1C2=O ; value: 82 µM
CN(CCc1ccncc1)C(=O)COc1ccc(NC(=O)CSc2nnnn2-c2ccc(C3CC3)cc2Cl)c(Cl)c1 ; read by: PicoGreen / fluorescence ; strain or isolate: WT ; value: <1 µM
Cc1cc(N2C(=O)CSC2c2c(F)cccc2F)nc(C)n1 ; read by: absorbance ; value: <100 µg/mL
CC(C)c1nnc2c3ccccc3c(N3CCc4ccc(NS(C)(=O)=O)cc4C3)nn12 ; read by: RT activity / fluorescence ; strain or isolate: IIIB ; value: 0.81 µM
CC(C)(O/N=C(/C(=O)NCC=O)c1csc(N)n1)C(=O)O ; read by: radiometric ; value: >100 µg/mL
O=C1CSC(c2c(F)cccc2Cl)N1c1nc(-c2ccccc2)cc(C(F)(F)F)n1 ; read by: absorbance ; value: >100 µg/mL
CNC(=O)OCC(C)(C)C#Cc1ccc(NC(=O)CSc2nnnn2-c2ccc(C(C)(C)C)cc2Cl)c(Cl)c1 ; read by: PicoGreen / fluorescence ; mutations: RT-K103 Y181C ; value: <1 µM
CCC(Oc1ccc2c(c1OC(C)=O)C(=O)c1ccccc1C2=O)C(C)=O ; value: >100 µM
COCCn1c(=O)nc(-c2cnc(N3CCN(C)CC3)nc2)c2oc3ccccc3c21 ; read by: PicoGreen / fluorescence ; strain or isolate: BH10 ; value: 0.04 µM
CC(=O)Oc1c(OC(C)C(C)=O)ccc2c1C(=O)c1ccccc1C2=O ; value: 61 µM
CC(NC(=O)COC(C)(C)C#Cc1ccc(NC(=O)CSc2nnnn2-c2ccc(C(C)(C)C)cc2Cl)c(Cl)c1)C(=O)O ; read by: PicoGreen / fluorescence ; mutations: RT-K103 Y181C ; value: <1 µM
Cc1cc(-c2ccccc2)nc(N2C(=O)CSC2c2c(F)cccc2F)n1 ; read by: absorbance ; value: 10–100 µg/mL
FC(F)(F)c1nnc2c3ccccc3c(N3CCc4ccccc4C3)nn12 ; read by: RT activity / fluorescence ; strain or isolate: IIIB ; value: 0.31 µM
COc1c(C(=O)C2=CN3OC(C)=NC3N=C2)c(O)c(OC)c2occc12 ; read by: scintillation proximity / radiometric ; value: 0.0003 µM
CC(C)(C)c1ccc(-n2nnnc2SCC(=O)Nc2ccc(C(=O)NCCc3ccncc3)cc2Cl)c(Cl)c1 ; read by: PicoGreen / fluorescence ; strain or isolate: WT ; value: <1 µM
CCN1c2ncc(CCOc3ccc(-c4ccc(F)c(CC(=O)O)c4)cc3C)cc2C(=O)N(C)c2cccnc21 ; read by: nucleotide incorporation / radiometric ; strain or isolate: IIIB ; value: <0.05 µM
CN1CCN(NS(=O)(=O)c2ccc(NC(=O)CSc3nnnn3-c3ccc(C4CC4)cc3Cl)c(Cl)c2)CC1 ; read by: PicoGreen / fluorescence ; strain or isolate: WT ; value: <1 µM
CCN1c2ncc(CCOc3ccc(C(=O)O)c4c3CCCC4)cc2C(=O)N(C)c2ccc(OC)nc21 ; read by: nucleotide incorporation / radiometric ; mutations: RT-V106A ; value: >1 µM
CC(C)(C#Cc1ccc(NC(=O)CSc2nnnn2-c2cc(C3CC3)ccc2Cl)c(Cl)c1)C(=O)O ; read by: PicoGreen / fluorescence ; strain or isolate: WT ; value: <1 µM
O=C1c2ccccc2S[C@H]2[C@H](O)[C@@H](O)[C@H](O)[C@H](O)CN12 ; read by: RT activity / absorbance ; value: 2.11 µM
CC(C)(C#Cc1ccc(NC(=O)CSc2nnnn2-c2cc(C(C)(C)C)ccc2Cl)c(Cl)c1)NC(=O)CN=c1ccn(O)cc1 ; read by: PicoGreen / fluorescence ; mutations: RT-K103 Y181C ; value: <1 µM
CN1CCN(c2cc3c(cc2F)c(=O)c(C(=O)O)cn3-c2ccc3ccccc3c2)CC1.CS(=O)(=O)O ; read by: ELISA ; value: >1 µg/mL

A second listing of 4 rows from above:

{"structure": "CC(=O)Oc1c(OCC(=O)c2ccc(-c3ccccc3)cc2)ccc2c1C(=O)c1ccccc1C2=O", "value": "6 µM"}
{"structure": "CCN1c2ncc(CCOc3ccc(C(=O)Nc4cccn(CC(=O)O)c4=O)cc3C)cc2C(=O)N(C)c2cccnc21", "read by": "nucleotide incorporation / radiometric", "strain or isolate": "IIIB", "mutations": "RT-K103N Y181C", "value": "0.05–0.1 µM"}
{"structure": "CCC(Oc1ccc2c(c1OC(C)=O)C(=O)c1ccccc1C2=O)C(C)=O", "value": ">100 µM"}
{"structure": "CC(C)(C)c1ccc(-n2nnnc2SCC(=O)Nc2ccc(C(=O)NCCc3ccncc3)cc2Cl)c(Cl)c1", "read by": "PicoGreen / fluorescence", "strain or isolate": "WT", "value": "<1 µM"}